Data: USRE46376 (Wyeth LLC, dated 2017)

B1: B8-26 mAb (antibody, V domains shown)
VH: QVQLQQPGAELVKPGAPVKLSCKASGYSFTSYWMNWVKQRPGRGLEWIGRIDPSNSEIYYNQKFKDKATLTVDKSSSTAYIQLSSLTSEDSAVYYCASGHYGSIFAYWGQGTTLTVSS
VL: VQITQSPSYLAASPGETITINCRASKSISKYLAWYQEKPGKTNKLLLYSGSTLQSGIPSRFSGSRSGTDFTLIISSLEPEDSAMYYCQQHNEYPLTFGAGTKLELKR
B2: B59-3 mAb (antibody, V domains shown)
VH: QVQLQQPGAELVKPGASVKLSCKASGYTFTSYWMHWVKQRPGQGLEWIGVINPSNGRSTYSEKFKTTATVTVDKSSSTAYMQLSILTSEDSAVYYCARAYYSTSYYAMDYWGQGTSVTVSS
VL: VLMTQSPLSLPVSLGDQASISCRSSQNIVHSNGNTYLEWYLQKPGQSPKLLIYKVSNRFSGVPDRFSGSGSGTYFTLKISRVEAEDLGVYYCFQGSHFPFTFGTGTKLEIKR

Biological target: triple mutant toxin B (D286A/D288A/C698A), genetic, not chemically treated (Clostridium difficile strain 630 …)
Test: dot blot; None, Triple mutant TcdB

Binder	binding result
B1	binds
B2	binds
